{"source": "patent US9181310B2", "about": "(priority 2003, dated 2015)", "molecules": {"B1": {"name": "BombBC: Bacteriophage Outer Membrane Breaching protein of Xanthomonas phage P15 (Xp15) ORF BC, 17.9 kD, SEQ ID NO. 17 (protein, listed as Xanthomonas campestris)", "chain": "MSDQTDTTQTTPAEKAPPKEIIRGRMPIAVVALARFGSQSTTTTKAAADALGTTVGKIDDIRKNRNFAYVTADFKPTEAQKADGIEWLKRHPVGADALIEELQNLPVATAEESAAFEQVRASARGQNAKTAEGEVAQAGGGNRRKKKEKPAEAGEVQNPPAADGDSLLS"}}, "test_system": "Xanthomonas citri", "settings": "in vivo", "data": [{"molecule": "B1", "values": [{"measurement": "numbers of pustules", "value": "many fewer"}, {"measurement": "pathogenic symptoms caused by X. citri", "value": "greatly reduced"}, {"measurement": "size of the pustules", "value": "pustules remained tiny and were much less well developed"}]}]}
